Experimental data as given in patent publication US7030150B2, “Benzimidazole compounds and antiviral uses thereof” (Trimeris, Inc., priority 2001, dated 2006).

Tested on: RSV
Assay: RSV plaque reduction (PRA) / syncytia formation antiviral assay in Hep2 cells
Assay type: cell-based, Respiratory Syncytial Virus
Conditions: for Selective Index: ratio CC50/IC50, Tables 1-7; for SI: ratio CC50/IC50, Table 8

Structure (SMILES)	Selective Index	SI
CC(CNCc1nc2ccccc2n1Cc1nc2ccccc2[nH]1)c1ccccc1 (stereo not drawn) [compound 131]	278	
COC(=O)c1ccc2c(c1)nc(CN1CCOCC1)n2Cc1nc2ccccc2[nH]1.Cl [compound 249]		650
COc1ccc(CNCc2nc3ccccc3n2Cc2nc3ccccc3[nH]2)cc1 [compound 146]	45	
c1ccc2[nH]c(Cn3c(CNCCCN4CCOCC4)nc4ccccc43)nc2c1 [compound 124]	250	
Cc1cccc(CNCc2nc3ccccc3n2Cc2nc3ccccc3[nH]2)c1 [compound 183]	313	
FC(F)(F)c1cccc(N2CCN(Cc3nc4ccccc4n3Cc3nc4ccccc4[nH]3)CC2)c1 [compound 219]	769.2	
C1=CCN(Cc2nc3ccccc3n2Cc2nc3ccccc3[nH]2)C1 [compound 201]	292.3	
O=C1C(=O)N(Cc2nc3ccccc3n2Cc2nc3ccccc3[nH]2)c2ccc(F)cc21 [compound 237]	11.4	
c1cncc(Cn2c(CN3CCCCC3)nc3ccccc32)c1 [compound 57]	59	
FC(F)(F)c1ccc(CNCc2nc3ccccc3n2Cc2nc3ccccc3[nH]2)cc1 [compound 151]	13	
O=c1[nH]ccn1CCNCc1nc2ccccc2n1Cc1nc2ccccc2[nH]1 [compound 166]	154	
c1ccc2[nH]c(Cn3c(CNCC4CCCO4)nc4ccccc43)nc2c1 (stereo not drawn) [compound 170]	588	
CN(C)CCCN(CCCN(C)C)Cc1nc2ccccc2n1Cc1nc2ccccc2[nH]1 [compound 101]	125	
CCN1CCN(Cc2nc3ccccc3n2Cc2nc3ccccc3[nH]2)CC1 [compound 230]	20.8	
O=C1CCC(=O)N1Cc1nc2ccccc2n1Cc1nc2ccccc2[nH]1 [compound 225]	12.5	
c1ccc2[nH]c(Cn3c(CNCCCn4ccnc4)nc4ccccc43)nc2c1 [compound 105]	16.3	
CC(C)N(Cc1ccccc1)Cc1nc2ccccc2n1Cc1ccccn1 [compound 41]	85	
C[C@H](c1cccc2ccccc12)N(C)Cc1nc2ccccc2n1Cc1nc2ccccc2[nH]1 [compound 108]	80	
c1ccc(C(CNCc2nc3ccccc3n2Cc2nc3ccccc3[nH]2)c2ccccc2)cc1 [compound 132]	116	
CCCN(Cc1nc2ccccc2n1Cc1ccc(S(C)(=O)=O)cc1)CC1CC1 [compound 26]	83	
O=C(OCc1ccccc1)N1CCCCN(Cc2nc3ccccc3n2Cc2nc3ccccc3[nH]2)CC1 [compound 232]	123.5	
O=C1C(=O)N(Cc2nc3ccccc3n2Cc2nc3ccccc3[nH]2)c2ccc(Br)cc21 [compound 235]	18.5	
c1ccc2[nH]c(Cn3c(CN4CCOCC4)nc4cc(CN5CCCCC5)ccc43)nc2c1 [compound 261]		13
c1ccc(CN2CCC(NCc3nc4ccccc4n3Cc3nc4ccccc4[nH]3)CC2)cc1 [compound 137]	365	
c1ccc2[nH]c(Cn3c(CNCCCN4CCCC4)nc4ccccc43)nc2c1 [compound 147]	345	

Structure (SMILES)	Selective Index	SI
COc1cccc(CCNCc2nc3ccccc3n2Cc2nc3ccccc3[nH]2)c1 [compound 135]	244	
COc1ccc(N2CCN(Cc3nc4ccccc4n3Cc3nc4ccccc4[nH]3)CC2)cc1 [compound 197]	3000	
CC1CCCCC1NCc1nc2ccccc2n1Cc1nc2ccccc2[nH]1 (stereo not drawn) [compound 153]	155	
N#CCn1c(CN2CCOCC2)nc2ccccc21 [compound 9]	63	
COCCOCCOCCOCc1ccc2c(c1)nc(CN1CCOCC1)n2Cc1nc2ccccc2[nH]1 [compound 253]		13
NC(=O)c1ccc2c(c1)nc(CN1CCOCC1)n2Cc1nc2ccccc2[nH]1 [compound 247]		45
c1ccc(CN2CCN(Cc3nc4ccccc4n3Cc3nc4ccccc4[nH]3)CC2)cc1 [compound 231]	7.1	
OCC1CCCCN1Cc1nc2ccccc2n1Cc1nc2ccccc2[nH]1 (stereo not drawn) [compound 210]	32	
c1ccc2[nH]c(Cn3c(CN4CCCCC4)nc4ccccc43)nc2c1 [compound 79]	5000	
CCCN(Cc1nc2ccccc2n1Cc1ccccn1)CC1CC1 [compound 27]	179	
Fc1cc2c(c(Cn3c(CN4CCCCC4)nc4ccccc43)c1)OCOC2 [compound 73]	56	
N#CCCN(Cc1cccnc1)Cc1nc2ccccc2n1Cc1nc2ccccc2[nH]1 [compound 102]	12.5	
CCCN(Cc1nc2ccccc2n1Cc1cccc(Oc2ccccc2)c1)CC1CC1 [compound 25]	56	
O=CN1CCN(Cc2nc3ccccc3n2Cc2nc3ccccc3[nH]2)CC1 [compound 218]	1000	
Cc1ccccc1CNCc1nc2ccccc2n1Cc1nc2ccccc2[nH]1 [compound 133]	143	
FC(F)(F)Oc1cccc(CNCc2nc3ccccc3n2Cc2nc3ccccc3[nH]2)c1 [compound 127]	53	
CCCCN(CC)Cc1nc2ccccc2n1Cc1nc2ccccc2[nH]1 [compound 92]	715.8	
O=C1CCCN1CCCNCc1nc2ccccc2n1Cc1nc2ccccc2[nH]1 [compound 158]	294	
c1ccc2[nH]c(Cn3c(CN4CCC5CCCCC5C4)nc4ccccc43)nc2c1 (stereo not drawn) [compound 234]	60	
FC(F)(F)Oc1ccccc1Cn1c(CN2CCCCC2)nc2ccccc21 [compound 62]	26	
O=[N+]([O-])c1ccc(Cn2c(CN3CCCCC3)nc3ccccc32)o1 [compound 77]	67	
CCCN(Cc1nc2ccccc2n1Cc1ccc(Cl)cc1Cl)CC1CC1 [compound 22]	11.11	
c1ccc(CNCc2nc3ccccc3n2Cc2nc3ccccc3[nH]2)cc1 [compound 145]	51	
c1csc(CCNCc2nc3ccccc3n2Cc2nc3ccccc3[nH]2)c1 [compound 130]	476	
Fc1cc2c(c(Cn3c(CN4CCCCC4)nc4ccccc43)c1)OCOC2 [compound 59]	71	

Structure (SMILES)	Selective Index	SI
COC(=O)c1ccc2[nH]c(CNN3CCOCC3)nc2c1 [compound 6]	16.67	
CCCNCc1nc2ccccc2n1Cc1nc2ccccc2[nH]1 [compound 128]	833	
CCCCN(CCCC)CCNCc1ccc2c(c1)nc(CN1CCOCC1)n2Cc1nc2ccccc2[nH]1 [compound 250]		13
c1ccc(Cn2c(CN3CCCCC3)nc3ccccc32)nc1 [compound 56]	50	
c1ccc2c(c1)CCN(Cc1nc3ccccc3n1Cc1nc3ccccc3[nH]1)C2 [compound 206]	35.7	
O=C1CCCN1CCCNCc1nc2ccccc2n1Cc1nc2ccccc2[nH]1 [compound 141]	58	
CCN(CC)CCCC(C)NCc1nc2ccccc2n1Cc1nc2ccccc2[nH]1 (stereo not drawn) [compound 148]	81	
c1ccc2[nH]c(Cn3c(CNC4CC5CCC4C5)nc4ccccc43)nc2c1 (stereo not drawn) [compound 119]	909	
CCCN(Cc1nc2ccccc2n1Cc1csc(C)n1)CC1CC1 [compound 21]	23.36	
OCC1CCCN1Cc1nc2ccccc2n1Cc1nc2ccccc2[nH]1 (stereo not drawn) [compound 209]	10000	
CC(C)N(Cc1nc2ccccc2n1Cc1c2ccccc2nc2ccccc12)C1CCCCC1 [compound 10]	59	
CC(C)NCc1nc2ccccc2n1Cc1nc2ccccc2[nH]1 [compound 152]	2128	
Fc1ccc(CCNCc2nc3ccccc3n2Cc2nc3ccccc3[nH]2)cc1 [compound 167]	256	
c1ccc2c(Cn3c(CN4CCCCC4)nc4ccccc43)c3ccccc3nc2c1 [compound 72]	149	
c1cncc(CNCc2nc3ccccc3n2Cc2nc3ccccc3[nH]2)c1 [compound 113]	588	
CCCCCCCCN(CCCCCCCC)Cc1nc2ccccc2n1Cc1nc2ccccc2[nH]1 [compound 106]	9.3	
CC(C)N(Cc1ccc2c(c1)nc(CN1CCOCC1)n2Cc1nc2ccccc2[nH]1)C(C)C [compound 242]		13
CCN(CCO)Cc1nc2ccccc2n1Cc1nc2ccccc2[nH]1 [compound 96]	188.7	
COC(=O)c1ccc2nc(CN3CCOCC3)n(Cc3nc4ccccc4[nH]3)c2c1 [compound 11]	39	
CC1CC(C)CN(Cc2nc3ccccc3n2Cc2nc3ccccc3[nH]2)C1 (stereo not drawn) [compound 205]	1000	
CCCCC(CO)NCc1nc2ccccc2n1Cc1nc2ccccc2[nH]1 (stereo not drawn) [compound 176]	196	
Clc1cccc(CNCc2nc3ccccc3n2Cc2nc3ccccc3[nH]2)c1 [compound 157]	172	
CCOCCCNCc1nc2ccccc2n1Cc1nc2ccccc2[nH]1 [compound 182]	370	
Fc1ccc(CNCc2nc3ccccc3n2Cc2nc3ccccc3[nH]2)cc1 [compound 126]	26	
Clc1ccc(CCNCc2nc3ccccc3n2Cc2nc3ccccc3[nH]2)cc1 [compound 163]	36	
